PubChem BioAssay AID624099, ICCB-Longwood | 2012

- Aim: 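Human genes that papillomavirus E2 requires to repress the HPV18 LCR promoter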 (primary screen)
- Cell system: human C33A cervical carcinoma cells (HPV-negative) stably expressing BPV1 E2 and an HPV18 LCR luciferase reporter
- Reagents: siRNA pool against human genes, 40 nM
- Duration: 72 h
- Measurement: 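Per-well luciferase luminescence, z-scored on each plate against the plate mean and SD with control wells left out, then averaged across three replicate plates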
- Reading the numbers: mean z-score and z-score: higher = stronger reporter signal, weaker E2 silencing
- Call rule: 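Hit if mean z-score reaches 2 and two or more of three replicate z-scores also reach 2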
This is a random part of about 21,000 reagents. 497 of all reagents (2.4%) count as active. 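Higher z means weaker E2 silencing; only reporter increases were scored, and knock-downs that hurt cell survival may mask genuine repressor factors.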

target gene	mean z-score	z-score, replicate A	z-score, replicate B	z-score, replicate C	call
TNFRSF10B	0.7	0.8	0.64	0.65	inactive
HAGH	-0.33	-0.65	-0.36	0.01	inactive
USF1	0.1	0.4	0.13	-0.24	inactive
POLG2	-0.44	-0.59	-0.3	-0.42	inactive
TRIM56	-0.79	-1.15	-0.74	-0.47	inactive
NIBAN2	0.99	1.17	0.85	0.96	inactive
BMP8A	-1.13	-1.11	-0.53	-1.75	inactive
LMOD1	-0.2	0	-0.07	-0.53	inactive
CHCHD10	1.75	1.95	1.39	1.92	inactive
CDX1	-0.33	-0.71	-0.4	0.12	inactive
LOC391241 (retired record)	-0.98	-0.88	-0.93	-1.14	inactive
PABIR2	-0.5	-0.18	-0.87	-0.44	inactive
ZNF711	0	-0.09	0.08	0.01	inactive
PVR	-0.03	-0.18	0.06	0.03	inactive
ITSN2	-2.83	-2.73	-3.1	-2.66	inactive
PGS1	-0.27	-0.12	-0.66	-0.04	inactive
ZNF695	-0.57	-0.96	-0.45	-0.3	inactive
LOC392563 (retired record)	-0.55	-0.64	-0.76	-0.26	inactive
ZBED2	-0.62	-0.76	-0.78	-0.32	inactive
BRIP1	0.65	0.64	0.68	0.64	inactive
PWP1	0.81	1.19	0.91	0.34	inactive
CTRC	-1.2	-1.36	-1.13	-1.1	inactive
ZNF516	-0.21	-0.29	-0.34	0	inactive
RPS27	-2.15	-2.24	-2.03	-2.2	inactive
SH3GLB2	0.75	0.78	1.04	0.44	inactive
FYRD1	0.07	-0.23	0.14	0.29	inactive
TMEM106B	-0.81	-0.9	-0.93	-0.59	inactive
CACNA1G	0.75	0.63	0.82	0.79	inactive
PRKCB	0.43	0.55	-0.05	0.78	inactive
COL3A1	0.29	0.15	0.34	0.39	inactive
ZNF141	0.43	0.65	0.41	0.22	inactive
FASTKD3	-0.88	-0.91	-0.75	-0.97	inactive
MSRB2	0.39	-0.09	0.51	0.74	inactive
ASTILCS	-1	-0.76	-1.14	-1.12	inactive
TTLL2	-0.29	-0.53	-0.38	0.05	inactive
PDCD6	0	0.08	-0.02	-0.08	inactive
ZNF845	-0.13	0.25	-0.48	-0.15	inactive
OXCT2	1.41	0.77	1.55	1.93	inactive
MAN2A1	-1.43	-1.59	-1.52	-1.18	inactive
SLC36A4	0.15	0.23	0.23	0	inactive
SUGCT	-1.33	-1.07	-1.37	-1.55	inactive
RFXAP	-0.71	-0.75	-0.8	-0.57	inactive
SLC16A6	-1.68	-1.42	-1.92	-1.69	inactive
FLJ10232 (retired record)	0.61	1.07	1.18	-0.43	inactive
EMP3	0.33	0.86	0.17	-0.06	inactive
GARIN1B	0.07	0.08	-0.02	0.16	inactive
SLC2A1	-0.4	-0.34	-0.32	-0.53	inactive
VAMP8	0.18	0.09	0.15	0.29	inactive
FUT2	-0.25	-0.45	-0.17	-0.13	inactive
NPHP3	-0.08	-0.27	0.09	-0.07	inactive
TAFA3	0.57	0.36	0.71	0.65	inactive
BCKDK	0.11	0.01	0.09	0.21	inactive
AGPAT4	1.03	1.05	0.98	1.06	inactive
DCTN4	-0.11	0.03	-0.37	0.02	inactive
MSLN	2.09	2.09	1.75	2.43	active
RTKN2	-0.11	0.28	-0.31	-0.31	inactive
KNDC1	-0.71	-0.35	-0.69	-1.08	inactive
PART1	0.73	0.6	0.77	0.81	inactive
TPCN2	-1.24	-1.4	-1.05	-1.27	inactive
NEU3	-0.14	-0.12	-0.32	0.03	inactive
CACNA1A	0.73	0.13	0.79	1.26	inactive
CEP78	-0.57	-0.57	-0.7	-0.45	inactive
ABCG5	2.05	1.91	1.98	2.26	inactive
LCE1C	1.19	0.97	1.2	1.38	inactive
SCNM1	0.96	1.25	0.72	0.92	inactive
KCTD17	0.76	0.37	0.93	0.99	inactive
NTSR1	-1.01	-0.63	-0.84	-1.56	inactive
SLC7A4	0.22	0.37	0.02	0.28	inactive
POPDC2	0.17	0	-0.1	0.61	inactive
FBXL18	-0.68	-1	-0.66	-0.4	inactive
PTPRT	-0.22	-0.39	-0.09	-0.18	inactive
CRK	0.97	1.23	0.81	0.88	inactive
DPP6	-0.71	-0.85	-0.79	-0.5	inactive
